Each structure is given as a SMILES string. Only a part is listed here, and it is no random draw.

The values below come from ChEMBL document CHEMBL1156829.

The assay in a line: NOVARTIS: Inhibition Frequency Index (IFI) - the number of HTS assays where a compound showed > 50% inhibition/induction, expressed as a percentage of the number of assays in which the compound was tested. It counts as functional.
For the compound `O=[N+]([O-])c1ccc(NCCN(CCO)c2ccc([N+](=O)[O-])cc2[N+](=O)[O-])c(Cl)c1`, the IFI worked out at 0%. `Cc1nc(Nc2cccc([N+](=O)[O-])c2)nc(Nc2cccc([N+](=O)[O-])c2)c1[N+](=O)[O-]` gave an IFI of 0%.
